Test results reported in the supplement of paper PMC4723716.
Only a part is listed here, and it is no random draw.

Test system: Plasmodium falciparum NF54 gametocytes
Test: viability index relative to DMSO control (fraction); higher = less gametocyte killing
Details: 12.5 µM, incubation time: 72 h
How it was run: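 P. falciparum NF54 gametocytes at stages I–V were treated with compound at 12.5 µM for 72 hr at 37°C under low oxygen in serum-containing medium (0.50% gametocytemia, 1.25% hematocrit), then stained with MitoTracker Red CMXRos and imaged in serum-free medium containing 500 nM dye. The viability index is the gametocyte particle count divided by the plate mean of solvent-only wells.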

[1] = gametocyte stage: Stage I viability index
[2] = gametocyte stage: Stage II viability index
[3] = gametocyte stage: Stage III viability index
[4] = gametocyte stage: Stage IV viability index
[5] = gametocyte stage: Stage V viability index

Row | Structure (SMILES) | viability index [1] | viability index [2] | viability index [3] | viability index [4] | viability index [5]
1 | c1ccc2c(NCCCCCCNc3c4c(nc5ccccc35)CCCC4)c3c(nc2c1)CCCC3 | 0.166 | 0.0216 | 0.0448 | 0.0538 | 0.0519
2 | CCC1(C)CC(CCNCc2ccccc2O)(c2ccc(C)cc2)CCO1 (stereo not given) | 0.0552 | 0.134 | 0.521 | 0.663 | 0.505
